Assay results from patent US6436691B1, “Chemical compounds” (Zeneca Limited, priority 1995, dated 2002).

Test system: LoVo colorectal tumour cells
Assay: Cytotoxicity in LoVo tumour cells, SRB assay
Conditions: mean data from 3 separate studies

**Q.** For “N-[N-(4-{4-[bis-(2-chloroethyl)-amino]-3-methyl-phenoxy}-benzoyl)-L-alanine]-L-glutamic acid”, which IC50 is on record?
**A.** Its IC50 is 905 µM.
